Assay results published in US20230332126.

Target: full-length human recombinant SNAP23 protein (23 kDa)

B1: wild-type BoNT/E light chain (protein)
chain: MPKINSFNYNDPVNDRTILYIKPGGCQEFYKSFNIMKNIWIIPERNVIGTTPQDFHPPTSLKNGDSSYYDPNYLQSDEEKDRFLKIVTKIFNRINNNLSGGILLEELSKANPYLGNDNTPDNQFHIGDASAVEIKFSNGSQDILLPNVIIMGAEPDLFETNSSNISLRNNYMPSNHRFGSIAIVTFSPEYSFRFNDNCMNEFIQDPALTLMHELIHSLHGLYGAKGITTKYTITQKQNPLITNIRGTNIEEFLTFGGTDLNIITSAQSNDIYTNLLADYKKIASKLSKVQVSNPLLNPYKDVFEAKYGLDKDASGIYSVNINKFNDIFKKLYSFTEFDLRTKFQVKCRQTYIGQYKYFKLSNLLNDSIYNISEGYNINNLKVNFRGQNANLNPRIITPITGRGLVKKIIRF
- in vitro cleavage, anti-SNAP23 Western blot (400 nM, 37° C., 1 hour): The untreated, wtLC/A, and wtLC/E lanes provided negative controls
